How the values were obtained:
[1] = target: LptAm^Q62L (E. coli) (E. coli (ATCC 25922)); test: fluorescence polarisation; indirect (competition) assay: unlabeled peptide or protein serially diluted into a 1:1 mixture of Lpt protein and 6-FL (2x stock 70 nM); 50 mM Na-Pi pH 7, 150 mM NaCl, 0.05% Tween 20; incubated overnight at 4°C, read at 25°C; triplicates; Ki from IC50 by Cheng-Prusoff
[2] = target: LptAm (E. coli), monomeric truncated variant of LptA (E. coli (ATCC 25922)); test: as above

B1: LptC^AA (E. coli), periplasmic domain LptC(25-191) Y60A R61A (domain or fragment)
chain: GAEKDDTAQVVVNNNDPTYKSEHTDTLVYNPEGALSAALIAQHVEYYSDQAVSWFTQPVLTTFDKDKIPTWSVKADKAKLTNDRMLYLYGHVEVNALVPDSQLRRITTDNAQINLVTQDVTSEDLVTLYGTTFNSSGLKMRGNLRSKNAELIEKVRTSYEIQNKQTQP
- Ki [1]: 26.7 µM
- Ki [2]: 1.8 µM
